Pooled drug test results. Numbers come from NIAID ChemDB, via PubChem.

Common to all: whole-cell or culture tests; organism: Mycobacterium tuberculosis

Lines come from different laboratories, so protocols vary.

smiles | strain or isolate | measure | read by | dose | value
O=C(/C=C/c1ccccc1)c1ccc(Cl)cc1O | H37Rv | MIC |  |  | >12.5 µg/mL
NCC1CCC(COCC2CCC(CN)O2)O1 | H37Rv | MIC bound | BACTEC |  | >12.5 µg/mL
O=C1CCCC2=C1C(c1cccc3ccccc13)C1=C(CCCC1=O)O2 | H37Ra | MIC | resazurin |  | ≥0.4 µg/mL
O=C(NNc1nc(Nc2ccc(Cl)cc2)nc(Nc2ccccn2)n1)c1ccncc1 | H37Rv | inhibition | BACTEC / radiometric | 0.025 µM | 94%
CCCCCCCc1ccc(NC(=O)c2ccc(Cl)cc2O)cc1 | My 331/88 | MIC |  |  | 8 µM
NS(=O)(=O)c1ccc(Nc2nc(NNC(=O)c3ccncc3)nc(Nc3ccccn3)n2)cc1 | H37Rv | inhibition | BACTEC / radiometric | 0.0418 µM | 90%
C[C@H]1COc2c(N3CCN(C)CC3)c(F)cc3c(=O)c(C(=O)O)cn1c23 | 18 strains (levofloxacin-resistant) | MIC50 |  |  | 3.13 µg/mL
N=c1c2ccccc2nc2n1CCCCCCC2 | H37Rv | MIC bound | BACTEC |  | >12.5 µg/mL
Cc1ccc(Nc2nc(C#N)cnc2C(N)=O)cc1[N+](=O)[O-] | H37Rv | MIC |  |  | 25 µg/mL
CCCC(C)Nc1cc2c(cc1[N+](=O)[O-])c(=O)c(C(=O)O)cn2C(C)CCC | ATCC 27294 (WT) | MIC50 |  |  | >200 µM
O=C1CCCC2=C1C(c1cccs1)C1=C(CCCC1=O)O2 | H37Ra | MIC | resazurin |  | ≥3.125 µg/mL
CCSCC(N)C(=O)O | H37Rv | MIC |  |  | >100 µg/mL
CCCCCCCCCCC[C@@H]1CCC[C@@H](C)N1 | H37Rv | inhibition | BACTEC | 6.4 µg/mL | 91%
O=c1cc(-c2ccccc2)oc2cc(I)ccc12 | H37Rv | inhibition |  | 12.5 µg/mL | 9%
CC1(C)CC[C@]2(C(=O)O)CC[C@]3(C)C(=CC[C@@H]4[C@@]5(C)C[C@H](O)[C@H](O)[C@@](C)(C(=O)O)[C@@H]5CC[C@]43C)[C@@H]2C1 | H37Rv | MIC bound | BACTEC |  | >12.5 µg/mL
N#Cc1cnc(C(N)=O)c(Nc2cccc(O)c2)n1 | H37Rv | MIC |  |  | 25 µg/mL
CC(C)Nc1cc2c(cc1[N+](=O)[O-])c(=O)c(C(=O)O)cn2C(C)C | ATCC 27294 (WT) | MIC50 |  |  | 2 µM
CCN(CC)CCNc1ccc(C)c2oc3ccc(O)cc3c(=O)c12 | CS-R | MIC |  |  | 12.5 µg/mL
O=C(/C=C/c1ccccc1)c1cc(Cl)ccc1O | H37Rv | MIC |  |  | >12.5 µg/mL
OC(c1cc(C23CC4CC(CC(C4)C2)C3)nc2c(Cl)cc(Cl)cc12)C1CCCCN1 | H37Rv | inhibition | resazurin | 6.25 µg/mL | 100%
O=C(CSc1nnc(-c2ccc3ncccc3c2)o1)Nc1ccccc1 | H37Rv | MIC | agar |  | 500 µg/mL
C[C@@H]1CCC([C@@H](C)C(=O)OCCO)[C@]23OO[C@](C)(CCC12)O3 | H37Ra | MIC | resazurin |  | 0.39 µg/mL
CCCCCc1ccc(NC(=O)c2cc(Cl)ccc2O)cc1 | My 331/88 | MIC |  |  | 16 µM
O=C(O)c1cn(CCF)c2cc(NCCF)c([N+](=O)[O-])cc2c1=O | ATCC 27294 (WT) | MIC50 |  |  | 77 µM
COc1ccc(/C=C/C(=O)c2ccc(F)cc2O)cc1 | H37Rv | MIC |  |  | >12.5 µg/mL
COc1cccc(-c2csc(NC(=O)c3ccco3)n2)c1 | H37Ra | inhibition |  | 10 µM | <0%
CCC(S)CC(=O)OC | H37Rv | MIC |  |  | 25 µg/mL
COc1ccc(NC(=O)CSc2nnc(-c3ccc4ncccc4c3)o2)cc1 | H37Rv | MIC | agar |  | 25 µg/mL
CCC(=O)N/N=C(\C=C\c1cccc(O)c1)c1sc(Nc2ccc(C)cc2[N+](=O)[O-])nc1C | H37Rv | inhibition | resazurin | 6.25 µg/mL | 44%
CC1SC2(CCCCC2)N(NC(=O)C(O)(c2ccccc2)c2ccccc2)C1=O | H37Rv | inhibition |  | 6.25 µg/mL | 0%
C=C[C@@H](O)C#CC#CC[C@H]1O[C@H]1CCCCCCC | H37Ra | MIC | resazurin |  | 36 µM
COc1ccc(-c2oc3ccc(Cl)cc3c(=O)c2O)cc1 | H37Rv | MIC |  |  | >12.5 µg/mL
CCC(S)CC(=O)O | H37Rv | MIC |  |  | 10 µg/mL
CCOC(=O)c1cc(C(=O)c2ccccc2)n2ccc(-c3ccn4c(C(=O)c5ccc(OC)cc5)cc(C(=O)OC)c4c3)cc12 | H37Rv (ATCC 27294) | EC90 | resazurin |  | >100 µg/mL
COc1c(N2CCNC(C)C2)c(F)cc2c(=O)c(C(=O)O)cn(C3CC3)c12 | 18 strains (levofloxacin-resistant) | MIC90 |  |  | 3.13 µg/mL
N#Cc1cnc(C(N)=O)c(Nc2cc(C(F)(F)F)cc(C(F)(F)F)c2)n1 | H37Rv | MIC |  |  | >100 µg/mL
O=C=NCCCCCCN1C(=O)N2C(c3ccccc3)N(CCCCCCN=C=O)C(=O)N2C1c1ccccc1 | H37Rv | inhibition | resazurin | 6.25 µg/mL | 4%
O=C(/C=C/c1ccco1)c1ccc(Br)cc1O | H37Rv | MIC |  |  | >12.5 µg/mL
Cc1ccccc1Nc1nc(NNC(=O)c2ccncc2)nc(Nc2ccccn2)n1 | H37Rv | inhibition | BACTEC / radiometric | 0.111 µM | 71%
O=C(O)c1cn(N2CCOCC2)c2cc(NC3CC3)c([N+](=O)[O-])cc2c1=O | ATCC 27294 (WT) | MIC90 |  |  | 65 µM
CC(C)C1=C(O)C2=C(C(=O)C1=O)C1(C)CCCC(C)(C)C1CC2 | H37Rv | inhibition | BACTEC | 12.5 µg/mL | 33%
CCSSC(C)(C)CC | H37Rv | MIC |  |  | 50 µg/mL
CO[C@H]1/C=C/O[C@@]2(C)Oc3c(C)c(O)c4c(O)c(c(/C=N/N5CCN(C/C=C/c6ccccc6)CC5)c(O)c4c3C2=O)NC(=O)/C(C)=C\C=C\[C@H](C)[C@H](O)[C@@H](C)[C@@H](O)[C@@H](C)[C@H](OC(C)=O)[C@@H]1C | Kurono | MIC |  |  | 0.1 µg/mL
CCCCCCC/C=C\CCCCCCCC(=O)NN | ATCC 27294 H37Rv | MIC100 | resazurin |  | 50 µg/mL
CC1SC2(CCC(c3ccccc3)CC2)N(NC(=O)C(O)(c2ccccc2)c2ccccc2)C1=O | H37Rv | inhibition |  | 6.25 µg/mL | 86%
O=C(NNc1nc(Nc2ccccn2)nc(Nc2ccccc2O)n1)c1ccncc1 | H37Rv | inhibition | BACTEC / radiometric | 0.1229 µM | 71%
c1ccc(-c2cc3c(cc4c5nncn5ncn34)o2)cc1 | H37Rv | MIC bound | BACTEC |  | >12.5 µg/mL
NC(=O)c1cnccn1 | H37Ra | MIC | resazurin |  | 3.125 µg/mL
CCN(CC)c1ccc2nc3c4ccccc4c(=NC(=O)c4ccccc4-c4c5ccc(N(CC)CC)cc5[o+]c5cc(N(CC)CC)ccc45)cc-3oc2c1.[Cl-] | TAC-R | MIC |  |  | 1.6 µg/mL
O=C1CSC2(CCC(c3ccccc3)CC2)N1NC(=O)C(O)(c1ccccc1)c1ccccc1 | H37Rv | inhibition |  | 6.25 µg/mL | 31%
O=C1CCCC2=C1C(c1cccc([N+](=O)[O-])c1)C1=C(CCCC1=O)O2 | H37Ra | MIC | resazurin |  | ≥0.4 µg/mL
O=c1cc(-c2ccccc2)oc2cc(F)ccc12 | H37Rv | MIC |  |  | >12.5 µg/mL
CSC(=S)N/N=C/c1cccc(C)n1 | PZA-R | MIC |  |  | >12.8 µg/mL
CCCCCCCc1ccc(NC(=O)c2cc(Br)cc(Br)c2O)cc1 | My 331/88 | MIC |  |  | 16 µM
NNC(=O)c1ccncc1 | ATCC 35338 RMPr | MIC100 | resazurin |  | 0.015 µg/mL
O=C1CCCC2=C1C(c1cccc(O)c1)C1=C(CCCC1=O)O2 | H37Ra | MIC | resazurin |  | ≥0.4 µg/mL
O=C(/N=C1\N=Nc2c(O)c(C3(c4nc5n(c4O)/C(=N/C(=O)Nc4ccc(Cl)cc4)N=N5)Cc4ccccc4C3=O)nn21)Nc1ccc(Cl)cc1 | H37Rv | inhibition | BACTEC | 128 µg/mL | 90%
CCSC[C@H](N)C(=O)O | H37Rv | MIC |  |  | >100 µg/mL
Nc1cccc(-c2csc(NC(=O)c3ccc([N+](=O)[O-])o3)n2)c1 | H37Ra | inhibition |  | 1 µM | <0%
O=C1C(=O)N(c2ccccc2)C(=O)N1c1ccccc1 | H37Rv | inhibition | BACTEC | 12.5 µg/mL | 0%
CC1COc2c(N3CCN(C)CC3)c(F)cc3c(=O)c(C(=O)O)cn1c23 | H37RV (SM-R) | MIC |  |  | 1.25 µg/mL
Cc1ccc2nc(NC(=O)CSc3nnc(-c4ccc5ncccc5c4)o3)sc2c1 | H37Rv | MIC | agar |  | 200 µg/mL
CO[C@H]1/C=C/O[C@@]2(C)Oc3c(C)c(O)c4c(=O)c(c5oc6cc(N7CCN(CC(C)C)CC7)cc(=O)c6nc5c4c3=C2O)NC(=O)/C(C)=C\C=C\[C@H](C)[C@H](O)[C@@H](C)[C@@H](O)[C@@H](C)[C@H](OC(C)=O)[C@@H]1C | H37Rv | MIC |  |  | 0.004 µg/mL
C/C(=N\NC(=O)c1cccnc1)c1cccc(/C(C)=N/NC(=O)c2cccnc2)n1 | RMP-R | MIC |  |  | >12.5 µg/mL
O=C(NNc1nc(Nc2ccccn2)nc(Nc2ccccc2[N+](=O)[O-])n1)c1ccncc1 | H37Rv | inhibition | BACTEC / radiometric | 0.1214 µM | 67%
NNC(=O)c1ccncc1 | 27 strains (levofloxacin-susceptible) | MIC90 |  |  | 6.25 µg/mL
COc1cccc(-c2csc(NC(=O)c3ccc([N+](=O)[O-])cc3)n2)c1 | H37Ra | inhibition |  | 10 µM | <0%
N#Cc1cnc(C(N)=O)c(Nc2ccc(O)cc2)n1 | H37Rv | MIC |  |  | 25 µg/mL
O=C(O)c1cn(C2CCC2)c2cc(NC3CCC3)c([N+](=O)[O-])cc2c1=O | ATCC 27294 (WT) | MIC50 |  |  | >200 µM
Cc1cc(C)n2nc(N)c(C#N)c2c1C#N | H37Rv | inhibition | resazurin | 6.25 µg/mL | -1%
O=C(CSc1nnc(-c2ccc3ncccc3c2)o1)Nc1nc2ccccc2s1 | H37Rv | MIC | agar |  | 250 µg/mL
Cc1cccc(Nc2nc(C#N)cnc2C(N)=O)c1 | H37Rv | MIC |  |  | 25 µg/mL
O=C(NNc1nc(Nc2ccccn2)nc(Nc2ccc(Cl)cc2Cl)n1)c1ccncc1 | H37Rv | inhibition | BACTEC / radiometric | 0.0614 µM | 92%
O=C(CSc1nnc(-c2ccc3ncccc3c2)o1)Nc1nc2ccc(F)cc2s1 | H37Rv | MIC | agar |  | 12.5 µg/mL
CC1CCCC2(C1)SCC(=O)N2NC(=O)C(O)(c1ccccc1)c1ccccc1 | H37Rv | inhibition |  | 6.25 µg/mL | 4%
O=c1cc(-c2ccccc2)oc2ccc(Br)cc12 | H37Rv | inhibition |  | 12.5 µg/mL | 8%
Nc1nc2ccc(NCc3ccc(C(=O)N[C@@H](CCC(=O)O)C(=O)O)cc3)cc2c(=O)[nH]1 | H37Rv | inhibition | BACTEC | 12.5 µg/mL | 16%
C=Cn1cc(C(=O)O)c(=O)c2cc([N+](=O)[O-])c(NCCF)cc21 | ATCC 27294 (WT) | MIC50 |  |  | >200 µM
NCCC(O)C(N)CC(=O)NC1CNC(=O)C(C2CCN=C(N)N2)NC(=O)/C(=C/NC(N)=O)NC(=O)C(CO)NC(=O)C(CO)NC1=O | H37RV (DL8280-R) | MIC |  |  | 12.5 µg/mL
CCCCCCC/C=C\CCCCCCCC(=O)O | ATCC 27294 H37Rv | MIC100 | resazurin |  | 100 µg/mL
Nc1cc2[nH]cc(C(=O)O)c(=O)c2cc1[N+](=O)[O-] | ATCC 27294 (WT) | MIC50 |  |  | >200 µM
CCCCc1ccc(NC(=O)c2cc(Br)cc(Br)c2O)cc1 | My 331/88 | MIC |  |  | 16 µM
Cc1cccc2c1CN1CC(=O)NC1=N2 | H37Rv | MIC bound |  |  | >6.25 µg/mL
CCCCc1ccc(NC(=O)c2ccc(Cl)cc2O)cc1 | My 331/88 | MIC |  |  | 4 µM
CCc1cc(C(N)=S)ccn1 | H37RV (DL8280-R) | MIC |  |  | 20 µg/mL
CCCCCCc1ccc(NC(=O)c2cc(Cl)ccc2O)cc1 | My 331/88 | MIC |  |  | 16 µM
CC1=C/N\C(C#N)=C(C#N)/N=C/C(C)=C\N\C(C#N)=C(C#N)/N=C\1 | H37Rv | inhibition | resazurin | 6.25 µg/mL | 5%
CCCCCCCCc1ccc(NC(=O)c2ccc(Cl)cc2O)cc1 | My 331/88 | MIC |  |  | 16 µM
O=C1C=C(c2ccccc2)OC1(c1ccccc1)N1CCOCC1 | H37Rv | MIC bound | BACTEC |  | >12.5 µg/mL
N[C@@H]1CONC1=O | Isoniazid-resistant | MIC |  |  | <10 µg/mL

The first 5 rows once more:

O=C(/C=C/c1ccccc1)c1ccc(Cl)cc1O ; strain or isolate: H37Rv ; measure: MIC ; value: >12.5 µg/mL
NCC1CCC(COCC2CCC(CN)O2)O1 ; strain or isolate: H37Rv ; measure: MIC bound ; read by: BACTEC ; value: >12.5 µg/mL
O=C1CCCC2=C1C(c1cccc3ccccc13)C1=C(CCCC1=O)O2 ; strain or isolate: H37Ra ; measure: MIC ; read by: resazurin ; value: ≥0.4 µg/mL
O=C(NNc1nc(Nc2ccc(Cl)cc2)nc(Nc2ccccn2)n1)c1ccncc1 ; strain or isolate: H37Rv ; measure: inhibition ; read by: BACTEC / radiometric ; dose: 0.025 µM ; value: 94%
CCCCCCCc1ccc(NC(=O)c2ccc(Cl)cc2O)cc1 ; strain or isolate: My 331/88 ; measure: MIC ; value: 8 µM

An empty or dashed field is not shown. MIC bound: limit read from a one-dose screen. MIC50, MIC90 and the like: level of inhibition, or share of isolates inhibited. Percent inhibition refers to the dose given; in toxicity tests it is the harm to the cells. ECn is the concentration giving n% inhibition of infection, replication or growth.